Record: PubChem BioAssay AID504761 (Drosophila RNAi Screening Center, 2011)
The screen tested about 22,000 reagents; shown is an unselected part of those with a known target gene and a result. Of all reagents, 116 (0.52%) were called active. 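Calls depend on retest data that are not deposited; infection was ranked per plate without normalising between plates; the unit of the infection score is not given.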 Raw values vary from plate to plate and are shown uncorrected. Entries without a mark were called inactive. A plus sign joins genes that one reagent is predicted to hit. Not given: the amount of reagent, the time to read-out.

Screen: 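Fly genes whose silencing reduces dengue virus type 2 infection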 (primary screen)
System: D.Mel-2 cells from Drosophila
Reagent: long dsRNA against Drosophila genes
Conditions: infection with dengue virus type 2; dose and infection time not stated
Read-out: 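Cells stained for dengue envelope protein and imaged; percent of infected cells per well on duplicate plates, ranked by infection, with stained nuclei counted for cell number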
Reading the numbers: infection score: higher = more virus-infected cells; cell count: higher = more cells in the well
Active means: 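Low infection ranks in the two replicates (chance level up to 0.065) followed by a retest with a 1.5-fold or larger significant decrease, p below 0.05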
Meaning of the calls: active = confirmed: knock-down lowers infection; inactive = not picked or not confirmed

infection score, replicate 1 | infection score, replicate 2 | cell count, replicate 1 | cell count, replicate 2 | gene knocked down | DRSC id
– | 8.95 | 279 | 4255 | Klp98A (Kinesin-like protein at 98A) | DRSC16724
6.13 | 2.46 | 6574 | 6638 | Klp98A (Kinesin-like protein at 98A) | DRSC21834
4.38 | 5.84 | 6490 | 5972 | CG15286 | DRSC23386
6.48 | 4.22 | 6497 | 6991 | CG30283 | DRSC04071
3.07 | 4.13 | 6686 | 6446 | CG30283 | DRSC24411
10.5 | 20.9 | 3277 | 5018 | CG9630 | DRSC16527
4.25 | 5.3 | 6123 | 6134 | CG43333 | DRSC23265
1.76 | 24.5 | 170 | 6174 | CG43333 | DRSC27202
3.97 | 9.73 | 6797 | 6812 | Rassf (Ras association family member) | DRSC15612
13.9 | 14.8 | 5731 | 5096 | Rassf (Ras association family member) | DRSC28891
3.87 | 6.34 | 6297 | 6436 | Sara (Smad anchor for receptor activation) | DRSC04653
4.5 | 2.47 | 6092 | 6185 | Zip88E (Zinc/iron regulated transporter-related protein 88E) | DRSC15562
7.88 | 19.6 | 5492 | 5659 | Zip88E (Zinc/iron regulated transporter-related protein 88E) | DRSC25826
5.49 | 3.95 | 6306 | 6449 | CG11598 | DRSC14331
3.37 | 1.87 | 5967 | 5774 | nmdyn-D6 | DRSC20355
4.29 | 1.04 | 5971 | 6044 | CG30065 | DRSC05420
5.88 | 3.47 | 5681 | 5354 | VAChT + ChAT | DRSC13312
15 | 1.03 | 5894 | 290 | PolE1 (DNA polymerase epsilon subunit 1) | DRSC16112
7.64 | 13.6 | 6273 | 6651 | PolE1 (DNA polymerase epsilon subunit 1) | DRSC27613
11.1 | 5.44 | 5973 | 6006 | ath (athos) | DRSC02788
24.4 | 28 | 6271 | 4670 | CG6830 | DRSC16124
21 | 21 | 6432 | 6361 | CG6830 | DRSC27278
10.9 | 32.9 | 6450 | 5481 | GCC88 (GRIP and coiled-coil domain containing 88 kDa) | DRSC14264
– | 4.62 | 366 | 736 | GCC88 (GRIP and coiled-coil domain containing 88 kDa) | DRSC29299
9.15 | 6.75 | 6189 | 6252 | CG30062 | DRSC21737
2.12 | 9.16 | 6496 | 6586 | Or22a (Odorant receptor 22a) | DRSC00764
14.1 | 16.3 | 4167 | 5327 | Or22a (Odorant receptor 22a) | DRSC26009
1.97 | 4.86 | 6153 | 6732 | Gr43a (Gustatory receptor 43a) | DRSC06658
1.44 | 6.78 | 6248 | 6355 | Desi (Desiccate) | DRSC14909

Continued (5 carried over from the part before).
infection score, replicate 1 | infection score, replicate 2 | cell count, replicate 1 | cell count, replicate 2 | gene knocked down | DRSC id
9.15 | 6.75 | 6189 | 6252 | CG30062 | DRSC21737
2.12 | 9.16 | 6496 | 6586 | Or22a (Odorant receptor 22a) | DRSC00764
14.1 | 16.3 | 4167 | 5327 | Or22a (Odorant receptor 22a) | DRSC26009
1.97 | 4.86 | 6153 | 6732 | Gr43a (Gustatory receptor 43a) | DRSC06658
1.44 | 6.78 | 6248 | 6355 | Desi (Desiccate) | DRSC14909
3.65 | 4.04 | 6404 | 1163 | CG34404 | DRSC15335
22.3 | 25.3 | 5515 | 5589 | CG34404 | DRSC15978
6.95 | 15.1 | 6243 | 6007 | CG34404 | DRSC25463
5.72 | 11.3 | 6137 | 1620 | Dhfr (Dihydrofolate reductase) | DRSC16646
6.32 | 21.7 | 5395 | 4507 | Dhfr (Dihydrofolate reductase) | DRSC29019
9.65 | 3.29 | 5491 | 5928 | woc (without children) | DRSC15928
13.8 | 0.89 | 3829 | 675 | TpnC41C (Troponin C at 41C) | DRSC04916
22.6 | 15 | 5898 | 6002 | CG12253 | DRSC02153
10.9 | 28 | 6647 | 6124 | CG12253 | DRSC27266
0.53 | 1.54 | 6426 | 7088 | Lsp1alpha (Larval serum protein 1 alpha) | DRSC20258
9.33 | 1.34 | 6042 | 6553 | Lsp1alpha (Larval serum protein 1 alpha) | DRSC25329
– | 0.06 (active) | – | 6262 | LysD + LysB + LysC (retired record) | DRSC21249
4.54 | 5.07 | 5721 | 5754 | FASN2 (Fatty acid synthase 2) | DRSC00167
1.4 | 1.4 | 6017 | 6505 | FASN2 (Fatty acid synthase 2) | DRSC00610
15 | – | 4570 | 494 | Rbbp5 + CG6434 (retired record) | DRSC10635
2.97 | 1.97 | 6575 | 6558 | CG17300 | DRSC10260
11 | 1.69 | 4275 | 1122 | CG17300 | DRSC28904
11.8 | 6.34 | 2767 | 3109 | CG11808 | DRSC06088
9.46 | 13 | 6202 | 5984 | CG11808 | DRSC27380
1.94 | 8.84 | 6191 | 6593 | CG32987 | DRSC22373
5.73 | 1.95 | 1361 | 1027 | CG32987 | DRSC28687
1.99 | 0.09 | 6490 | 6427 | CG7091 | DRSC12944
3.93 | 3.69 | 6777 | 6972 | CG7091 | DRSC16197
0.86 | 4.96 | 5897 | 6387 | CG32320 | DRSC21514
40.9 | 25.3 | 5992 | 5965 | CG32320 | DRSC28106
2.66 | 18.1 | 5980 | 4233 | CG31058 (retired record) | DRSC22987
3.15 | 13.9 | 5991 | 5981 | CG31058 (retired record) | DRSC25786
2.71 | 0.32 | 5835 | 6587 | CG14053 | DRSC17908
4.27 | 2.58 | 6446 | 6469 | Ir75c (Ionotropic receptor 75c) | DRSC10190
13.1 | 11.8 | 6444 | 5627 | Cog8 (Component of oligomeric golgi complex 8) | DRSC02961
21.9 | 14.9 | 6656 | 6422 | Nasp (Nuclear autoantigenic sperm protein) | DRSC27430
11 | 4.59 | 6547 | 6629 | AMPdeam (AMP deaminase) | DRSC19366
– | – | 375 | 350 | AMPdeam (AMP deaminase) | DRSC19368
4.67 | 10.1 | 6405 | 6500 | AMPdeam (AMP deaminase) | DRSC19727
2.83 | 1.78 | 6186 | 6535 | CG3124 | DRSC23062
13.7 | 3.5 | 5698 | 5513 | CG3124 | DRSC26288
4.13 | 2.08 | 6053 | 6360 | Cyp28d1 (Cytochrome P450 28d1) | DRSC03298
4.4 | 11 | 6525 | 6831 | Cyp28d1 (Cytochrome P450 28d1) | DRSC21331
23 | 20.7 | 5061 | 5678 | Cyp28d1 (Cytochrome P450 28d1) | DRSC28292
10.6 | 22.8 | 6373 | 6385 | CG13531 | DRSC04173
8.9 | 8.37 | 5761 | 5829 | Chsy (Chondroitin sulfate synthase) | DRSC20175
3.01 | 1.97 | 6051 | 6254 | Chsy (Chondroitin sulfate synthase) | DRSC20176
0.58 | 1.3 | 6351 | 6559 | CG15083 | DRSC06514
1.05 | 1.28 | 6211 | 6105 | Sema2b (Semaphorin 2b) | DRSC05609
27.9 | 13.2 | 5283 | 6025 | Sema2b (Semaphorin 2b) | DRSC06867
4.07 | 2.48 | 6480 | 6205 | Sema2b (Semaphorin 2b) | DRSC24672
